Data: patent US12138299B2, “Aldehyde dehydrogenase producing bacteria and methods of using same” (Children's Hospital Medical Center, priority 2021, dated 2024)

Test system: C. rodentium
Experiment: C. rodentium in vitro culture, bacterial density (OD600)
Assay type: cell-based, Citrobacter rodentium
Settings: 10-1000 μM SNP (NO-donor)

sodium nitroprusside
C. rodentium survival in vitro: impaired

Some compounds may have been tested in ways that are not shown here.
